Data as given in US6001988.
Construct, isoform or probe ends are uncertain for at least one entry.

Target: Concanavalin A (succinylated) (Canavalia ensiformis) (UniProt P02866)
Experiment: filter binding
Conditions: 2'-NH2 all C and U; <5% bound at 1 uM protein; purified native protein; protein details: succinylated, E Y Laboratories; label: 32P

Kd, > 20 µM:
GGGAAAAGCGAAUCAUACACAAGAAAGGGAUGGGAUUGGGACGAGCGGCCAAGACUCGGCGGGAACGAAGGGUCCGCUCCGCCAGAGACCAACCGAGAA [6.8], GGGAAAAGCGAAUCAUACACAAGACGGCUGUGUGGUGUUGGAGCGUCAUAGUAGGAGUCGUCACGAACCAAGGCGCUCCGCCAGAGACCAACCGAGAA [11.24], GGGAAAAGCGAAUCAUACACAAGAUUGGUCGUACUGGACAGAGCCGUGGUAGAGGGAUUGGGACAAAGUGUCAGCUCCGCCAGAGACCAACCGAGAA [11.20]
